Measured values as given in patent US20260274928A1 (VIR BIOTECHNOLOGY, published 2026).
Numbering of substitutions follows the chain as printed.

B1: S2V29-v1.2 (antibody, V domains shown)
VH: EVQLVESGGSVVQPGRALRLSCAASGITFSSFGMYWVRQAPGKGLEWLGVIAYDGSNTYYADSVKGRFTISRDNSKNTLYLQMNSLRIEDTAVYYCAKDYYPLLSYYYGLDVWGQGTTVTVSS
VL: QSVLTQPRSVSGSPGQSVTISCTGTSSDVGAYNYVSWYQQHPGKAPKFMIYDVDQRPSGVPDRFSGSKSGNTASLIISGLQAEDEADYYCSSYAGSYIWVFGGGTQLTVL
B2: S2V29-v37.2 (antibody, V domains shown)
VH: B1 VH with V50Y, N57D
VL: B1 VL

How the values were obtained:
[1] = target: SARS-CoV-2 BQ.1.1 S glycoprotein (SARS-CoV-2 BQ.1.1); test: cell-based or functional assay
[2] = target: T1, SARS-CoV-2 CH.1.1 RBD (SARS-CoV-2 CH.1.1); test: RBD binding affinity (SPR, see Example 5)
T1 construct: domain: RBD

Binder | FC Compared to BQ.1.1 [1] [fold] | Kd [2] [nM]
B1 | 1 | 
B2 | 1 | 0.09
